Reference: ChEMBL document CHEMBL3351613, “Indolylarylsulfones carrying a heterocyclic tail as very potent and broad spectrum HIV-1 non-nucleoside reverse transcriptase inhibitors” (J Med Chem, 2014)

Columns and labels:
[1] = biological target: Human immunodeficiency virus type 1 reverse transcriptase (Human immunodeficiency virus 1, UniProt Q72547)
[2] = biological target: Human immunodeficiency virus type 1 reverse transcriptase (Human immunodeficiency virus 1, UniProt Q72547, Y181I)

SMILES: Cc1cc(C#N)cc(C)c1Oc1nc(Nc2ccc(C#N)cc2)nc(N)c1Br [ETRAVIRINE]
- IC50 [1]: 164 nM
- IC50 [2]: 164 nM
